The text below walks through data of patent US20250099433A1, “COMPOSITION AND METHOD FOR TREATMENT OF GRAM NEGATIVE BACTERIAL INFECTION” (The Research Foundation for the State University of New York, priority 2021, published 2025).

In test [1] the test system is P. aeruginosa PAO1. As to conditions: Walkup 2015; cited from earlier work.
Test [2] has as its system efflux-pump mutant strain (ΔMexABCDXY) (paEP). As to conditions: Walkup 2015; cited from earlier work.
Test [3] deals with P. aeruginosa and Klebsiella pneumonia infection. As to conditions: cited from earlier work.
The subject of test [4] is P. aeruginosa PAO1. The test can be described thus: MIC by microbroth dilution, P. aeruginosa PAO1. To be noted: wild-type P. aeruginosa PAO1. (In general: Broth dilution looks for growth in wells or tubes with falling amounts of substance.)

In brackets after ≈: the same amount, converted by molar mass.

For the compound `COc1ccc(-c2ccn(CC[C@](C)(C(=O)NO)S(C)(=O)=O)c(=O)c2)c(F)c1`, in the test with P. aeruginosa PAO1 [1], the “MIC PAO1” value was 0.6 µM (≈ 0.247 µg/mL). The MIC pump mutant in test [2] was 0.018 µM (≈ 0.00742 µg/mL). For the same compound, in test [3], the “in vivo antibacterial activity in animal models” value was “in vivo antibacterial activity”. The “MIC (μM) (PAO1)” value against P. aeruginosa PAO1 [4] came out at 0.625 µM (≈ 0.258 µg/mL).
